The test deals with Ang II. As to the kind of experiment: Mass spectrometry analysis of peptides generated from Ang II by ACE2-Fc. Particulars: Ang II peptide as substrate.

As to “wild-type ACE2-Fc: ectodomain of human ACE2 fused to the N-terminus of Fc domain of human IgG1; forms a dimer”, the “generation of Ang 1-7 from Ang II by mass spectrometry” value is “enzymatic cleavage of Ang II and the generation of Ang 1-7”.
